{"sequences": {"note": "Chains of the proteins cited; added tags and fusions are not shown. Residues count along the entry.", "UniProt P15917, 34-809 limits assumed": "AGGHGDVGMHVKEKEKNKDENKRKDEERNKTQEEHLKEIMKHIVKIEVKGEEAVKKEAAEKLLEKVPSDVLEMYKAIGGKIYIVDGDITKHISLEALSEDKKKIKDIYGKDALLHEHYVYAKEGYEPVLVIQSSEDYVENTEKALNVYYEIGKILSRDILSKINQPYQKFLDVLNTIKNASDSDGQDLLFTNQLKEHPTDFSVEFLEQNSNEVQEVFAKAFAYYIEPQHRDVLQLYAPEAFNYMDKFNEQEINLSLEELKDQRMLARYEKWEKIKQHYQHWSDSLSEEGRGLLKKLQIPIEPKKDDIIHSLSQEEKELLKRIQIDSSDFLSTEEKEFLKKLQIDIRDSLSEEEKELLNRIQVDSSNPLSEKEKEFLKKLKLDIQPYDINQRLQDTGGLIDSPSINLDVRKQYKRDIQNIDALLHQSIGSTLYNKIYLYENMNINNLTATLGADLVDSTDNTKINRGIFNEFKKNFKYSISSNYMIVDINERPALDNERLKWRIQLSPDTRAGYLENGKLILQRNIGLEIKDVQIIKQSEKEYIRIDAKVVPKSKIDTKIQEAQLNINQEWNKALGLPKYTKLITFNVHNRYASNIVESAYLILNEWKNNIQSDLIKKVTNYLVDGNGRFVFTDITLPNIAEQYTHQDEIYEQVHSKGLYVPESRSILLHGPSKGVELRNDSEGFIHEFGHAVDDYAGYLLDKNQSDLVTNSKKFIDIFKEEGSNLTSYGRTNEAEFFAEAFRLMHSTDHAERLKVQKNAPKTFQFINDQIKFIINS"}, "source": "patent US20150073021A1", "about": "(priority 2013, published 2015)", "molecular_target": "Recombinant lethal factor (native sequence) (Bacillus anthracis, UniProt P15917)", "experiment": "Lethal factor peptidolytic activity assay (FRET MAPKKide cleavage)", "data": [{"smiles": "O=C(/C=C/c1ccc(O)cc1)C(C(=O)/C=C/c1ccc(O)cc1)C(=O)Nc1ccccc1", "note": "[CMC2.24]", "values": [{"measurement": "IC50", "setting": "100 nM LF and 3 μM substrate, depends on substrate concentration", "result": 33.1, "unit": "µM"}, {"measurement": "inhibition of lethal factor peptidolytic activity (in words)", "setting": "100 nM lethal factor, 3 μM substrate, 20 μM inhibitors", "result": "strongest inhibitor of lethal factor among the CMCs tested"}, {"measurement": "inhibition of cleavage of substrate by lethal factor", "setting": "20 μM inhibitor, 3 μM substrate, 100 nM lethal factor", "result": "26-28%"}]}]}
